The list shows a part of the results, in another mix than the full data. Active and inactive are the calls of the source.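 The calls were made as follows: active = mean inhibition over three replicate wells above the hit threshold derived in the earlier primary screen (cut at about 45% in these data); inactive = the rest.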

For this assay, the system named is Hepatitis C virus core protein (core106 dimerization). The experiment in a line: blockers of core106 self-association – biochemical, TR-FRET, triplicate, confirmation (AID 2152).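 Also: 0% = DMSO wells and 100% = unlabelled core106 competitor control.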 The following applies: TR-FRET GST-/Flag-core106 dimerization, HTRF; at 5 µM; hits give high values. An outline of the steps: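 Test system: GST- and Flag-tagged HCV core106 peptides, dimerization via antibody TR-FRET / Amount: 17 nM Flag- plus 13.5 nM GST-core106 / Probe or stimulus: Eu(K)-anti-GST plus XL665-anti-FLAG antibodies / Compound dosing: one 5 µM dose, 0.5% DMSO / Times: 4 h incubation, 22.5 °C / Technique: TR-FRET, 340 nm excitation, 671/617 nm emission / Evaluation: percent inhibition from emission ratio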
For `C[N+]1=C2C=CC=CC=C2SC12C([N+](=O)[O-])=CC([N+](=O)[O-])=C[C-]2[N+](=O)[O-]` (configuration not stated), the inhibition is inactive: -19.6%.
In the case of `O=[N+]([O-])c1cc([N+](=O)[O-])c(CCN2CCOCC2)c([N+](=O)[O-])c1` it was inactive: 7.9%.

The record behind these values is PubChem BioAssay AID2152 (The Scripps Research Institute Molecular Screening Center, 2009).
